Results published in patent US10253035B2 (priority 2016, dated 2019).
Like-named read-outs stand apart in the source and are kept apart here.

Tested on: Mtb K204
[1] = KAN MIC for K204 Mtb in the presence of compound at the specified concentration, Example 4
[2] = anti-TB activity of KAN against Mtb K204 with compound at concentration tested (100-fold IC50 or 100 μM), Example 3
[3] = activity of KAN against Mtb K204 with compound at concentration tested, Example 1, first of the two experiments printed
[4] = activity of KAN against Mtb K204 with compound at concentration tested, Example 1, second of the two experiments printed

Compound: CC1=C(c2ccccc2)S(=O)(=O)N=C1NCCN1CCCCC1 [Compound 33a]
- K204 MICKAN [1]: 5 µg/mL

Compound: COc1cc(OC)cc(N(C)S(=O)(=O)c2ccc3[nH]c(=O)c(=O)[nH]c3c2)c1 [Compound 40]
- K204 MICKAN [2]: 5 to 10 µg/mL

Compound: CC1=C(c2ccc(F)cc2)S(=O)(=O)N=C1NCc1ccccn1 [Compound 112b]
- K204 MICKAN [1]: 10 µg/mL

Compound: CCCN1CCN(C2=NS(=O)(=O)C(c3ccc(C)c(C)c3)=C2C)CC1 [Compound 62i]
- K204 MICKAN [1]: 5 µg/mL

Compound: CC(C)c1cccc(N(C)S(=O)(=O)c2ccc3[nH]c(=O)c(=O)[nH]c3c2)c1 [Compound 43]
- K204 MICKAN [2]: 2.5 to 5 µg/mL

Compound: Cc1cccc(N(C)S(=O)(=O)c2ccc3[nH]c(=O)c(=O)[nH]c3c2)c1 [Compound 41]
- K204 MICKAN [2]: 2.5 to 5 µg/mL

Compound: CCN1CCN(CCNC2=NS(=O)(=O)C(c3ccc(F)cc3)=C2C)CC1 [Compound 37b]
- K204 MICKAN [1]: 2.5 to 5 µg/mL

Compound: CC1=C(c2ccc(C)c(C)c2)S(=O)(=O)N=C1NCC(=O)NCc1ccc(C)o1 [Compound 116i]
- K204 MICKAN [1]: 10 µg/mL

Compound: COc1ccc(C2=C(C)C(NCCN3CCN(C)CC3)=NS2(=O)=O)cc1 [Compound 36d]
- K204 MICKAN [1]: 2.5 to 5 µg/mL

Compound: CC(C)c1ccc(NS(=O)(=O)c2ccc3[nH]c(=O)c(=O)[nH]c3c2)cc1 [Compound 34]
- K204 MICKAN [2]: 5 µg/mL

Compound: CCCCc1cccc(N(C)S(=O)(=O)c2ccc3[nH]c(=O)c(=O)[nH]c3c2)c1 [Compound 44]
- K204 MICKAN [2]: 5 to 10 µg/mL

Compound: CC1=C(c2ccc(C)c(C)c2)S(=O)(=O)N=C1NCCCN1CCOCC1 [Compound 13i]
- K204 MICKAN [1]: 5 µg/mL

Compound: CC1=C(c2ccc(Cl)cc2)S(=O)(=O)N=C1NCCCN1CCN(C)CC1 [Compound 14c]
- K204 MICKAN [1]: 5 µg/mL

Compound: CN(c1ccc(Br)cc1)S(=O)(=O)c1ccc2[nH]c(=O)c(=O)[nH]c2c1 [Compound 29]
- K204 MICKAN [2]: 2.5 µg/mL

Compound: CCN1CCN(CCCNC2=NS(=O)(=O)C(c3ccc(C)cc3)=C2C)CC1 [Compound 15e]
- K204 MICKAN [1]: 5 µg/mL

Compound: CCN1CCN(CCNC2=NS(=O)(=O)C(c3ccc(OC)cc3)=C2C)CC1 [Compound 37d]
- K204 MICKAN [1]: 5 to 10 µg/mL

Compound: CCN1CCN(CCCNC2=NS(=O)(=O)C(c3ccc(C(C)C)cc3)=C2C)CC1 [Compound 15f]
- K204 MICKAN [1]: 10 µg/mL

Compound: CC1=C(c2ccc(C)cc2)S(=O)(=O)N=C1NCCN1CCOCC1 [Compound 35e]
- K204 MICKAN [1]: 5 µg/mL

Compound: CC1=C(c2ccc(F)cc2)S(=O)(=O)N=C1N1CCC(N2CCCCC2)CC1 [Compound 46b]
- K204 MICKAN [1]: 5 µg/mL

Compound: COC(=O)c1cc2occc2n1CC(=O)C(C)(C)C [Compound 1m]
- K204 MICKAN [3]: ≥10, 10 μg/mL
- K204 MICKAN [4]: ≥10, 10 μg/mL

Compound: CN(c1ccc(Cl)cc1)S(=O)(=O)c1ccc2[nH]c(=O)c(=O)[nH]c2c1 [Compound 35]
- K204 MICKAN [2]: 2.5 µg/mL

Compound: O=c1[nH]c2ccc(S(=O)(=O)Nc3ccc(Br)cc3)cc2[nH]c1=O [Compound 30]
- K204 MICKAN [2]: 5 µg/mL

Compound: CCC(=O)CN1C(=O)C2(OCCO2)c2ccccc21 [Compound 2l]
- K204 MICKAN [3]: ≥10, 10 μg/mL
- K204 MICKAN [4]: ≥10, 10 μg/mL

Compound: CC1=C(c2ccc(F)cc2)S(=O)(=O)N=C1NCc1ccccc1 [Compound 89b]
- K204 MICKAN [1]: 10 µg/mL

Compound: CN(c1cccc(Br)c1)S(=O)(=O)c1ccc2[nH]c(=O)c(=O)[nH]c2c1 [Compound 38]
- K204 MICKAN [2]: 2.5 µg/mL

Compound: CC1=C(c2ccc(C)c(C)c2)S(=O)(=O)N=C1NCCCN1CCN(C2CCCCC2)CC1 [Compound 17i]
- K204 MICKAN [1]: 5 µg/mL

Compound: CN(c1cccc(F)c1)S(=O)(=O)c1ccc2[nH]c(=O)c(=O)[nH]c2c1 [Compound 37]
- K204 MICKAN [2]: 5 µg/mL

Compound: CC1=C(c2cccc(Cl)c2)S(=O)(=O)N=C1NCCCN1CCOCC1 [Compound 13g]
- K204 MICKAN [1]: 2.5 to 5 µg/mL
